PubChem BioAssay AID624099 – ICCB-Longwood – 2012
This is a random part of about 21,000 reagents tested. 497 of all reagents (2.4%) were called active. 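Higher z means weaker E2 silencing; only reporter increases were scored, and knock-downs that hurt cell survival may mask genuine repressor factors.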 Entries without a mark were called inactive. Reagents against one gene are numbered here.

Purpose: 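Host factors E2 relies on to silence an HPV18 LCR reporter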 (primary screen)
Cell system: human C33A cervical carcinoma cells (HPV-negative) stably expressing BPV1 E2 and an HPV18 LCR luciferase reporter
Reagent: siRNA pool against human genes, 40 nM
Timing: 72 h
Read-out: 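Per-well luciferase luminescence, z-scored on each plate against the plate mean and SD with control wells left out, then averaged across three replicate plates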
Reading the numbers: mean z-score and z-score: higher = stronger reporter signal, weaker E2 silencing
Hit rule: 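Mean z ≥ 2 together with z ≥ 2 in two or more of the three replicates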

| target | reagent | mean z-score | z-score, replicate A | z-score, replicate B | z-score, replicate C |
| --- | --- | --- | --- | --- | --- |
| SLC28A3 | 1 | -0.71 | -0.95 | -1.16 | -0.02 |
| TMPRSS11B | 1 | 0.24 | 0.13 | 0.05 | 0.53 |
| MBOAT2 | 1 | -0.42 | -0.29 | -0.32 | -0.65 |
| LOC389341 (retired record) | 1 | -0.94 | -0.83 | -1.42 | -0.57 |
| ZNF493 | 1 | 0.91 | 0.82 | 0.73 | 1.18 |
| FAH | 1 | -1.02 | -1.35 | -1.35 | -0.36 |
| FASN | 1 | 0.78 | 0.58 | 0.69 | 1.06 |
| PRMT7 | 1 | 1.18 | 0.86 | 1.04 | 1.65 |
| LOC402286 (retired record) | 1 | 0.62 | 0.82 | 0.49 | 0.56 |
| OR3A3 | 1 | -0.11 | -0.2 | 0 | -0.14 |
| TCF7L1 | 1 | 1.3 | 0.28 | 3.42 | 0.22 |
| CLTA | 1 | 0.38 | 0.52 | 0.49 | 0.14 |
| TREX2 | 1 | 1.69 | 1.85 | 1.82 | 1.41 |
| LOC133993 (retired record) | 1 | -0.24 | -0.35 | -0.27 | -0.11 |
| COL6A5 | 1 | 1.39 | 1.21 | 1.41 | 1.54 |
| CCDC142 | 1 | 1.1 | 1 | 1.23 | 1.06 |
| TFDP2 | 1 | 0.59 | 0.39 | 0.7 | 0.68 |
| GSX1 | 1 | 1.13 | 1.17 | 1.1 | – |
| LOC400730 (retired record) | 1 | -0.59 | -0.65 | -0.83 | -0.28 |
| LINC00479 | 1 | 1.07 | 1.49 | 0.65 | 1.06 |
| SETD6 | 1 | -0.04 | -0.03 | 0.44 | -0.52 |
| SCYL1 | 1 | -0.24 | 0 | -0.42 | -0.3 |
| B3GALT5-AS1 | 1 | -0.81 | -0.63 | -0.86 | -0.93 |
| ZMIZ1-AS1 | 1 | 0.62 | – | 0.5 | 0.73 |
| LOC389117 (retired record) | 1 | -0.45 | -0.6 | -0.33 | -0.44 |
| ANKRD27 | 1 | 0.03 | -0.01 | 0.17 | -0.06 |
| CPQ | 1 | -1.6 | -1.41 | -1.78 | -1.6 |
| OR2G2 | 1 | 0.12 | 0.57 | 0.06 | -0.29 |
| EVC2 | 1 | 2.45 (active) | 1.95 | 2.6 | 2.8 |
| CALCRL | 1 | -0.22 | -0.39 | -0.1 | -0.19 |
| DBR1 | 1 | 0.05 | 0.04 | -0.28 | 0.38 |
| TRAPPC10 | 1 | -0.28 | 0.01 | -0.42 | -0.41 |
| SLC35E2A | 1 | -2.56 | -2.54 | -2.45 | -2.7 |
| KBTBD11 | 1 | -0.11 | 0.09 | -0.21 | -0.23 |
| PRY | 1 | -1.43 | -1.2 | -1.39 | -1.7 |
| CEP95 | 1 | -0.17 | -0.4 | -0.32 | 0.22 |
| HSALR1 | 1 | 0.32 | – | -0.02 | 0.66 |
| CABP5 | 1 | -0.27 | -0.11 | -0.44 | -0.27 |
| B3GNT7 | 1 | 0.45 | 0.9 | 0.18 | 0.28 |
| ZNF680 | 1 | 0.34 | 0.45 | 0.17 | 0.41 |
| ELL2 | 1 | 0.58 | 0.82 | 0.65 | 0.27 |
| LOC151154 (retired record) | 1 | 0.21 | 0.05 | 0.75 | -0.17 |
| SPATA13 | 1 | 0.43 | 0.12 | 1.1 | 0.09 |
| GPC3 | 1 | -0.06 | -0.2 | 0.16 | -0.15 |
| VEZT | 1 | 0.59 | 0.23 | 0.48 | 1.07 |
| ZNF669 | 1 | 3.13 (active) | 4.04 | 3.06 | 2.3 |
| KATNA1 | 1 | 0.3 | 0.41 | 0.23 | 0.27 |
| LOC90462 (retired record) | 1 | 0.38 | 0.27 | 0.16 | 0.73 |
| DPYSL4 | 1 | -0.43 | -0.45 | -0.53 | -0.3 |
| CLEC14A | 1 | 0.31 | 0.38 | 0.52 | 0.03 |
| DPY19L1 | 1 | 0.33 | 0.45 | 0.08 | 0.45 |
| ZBED3 | 1 | 1.04 | 1.38 | 0.77 | 0.96 |
| NAT8 | 1 | -0.44 | -0.68 | -0.12 | -0.51 |
| LOC388943 (retired record) | 1 | 0.1 | 0.14 | 0.06 | 0.09 |
| SRP14 | 1 | 0.4 | 0.75 | 0.14 | 0.3 |
| LOC140103 (retired record) | 1 | -0.55 | -0.72 | -0.21 | -0.73 |
| APPL1 | 1 | -0.22 | 0.07 | -0.33 | -0.39 |
| PRDM10 | 1 | -1.17 | -1.05 | -1.18 | -1.27 |
| RAB9B | 1 | 0.06 | 0.08 | 0.08 | 0.03 |
| GNPDA2 | 1 | 0.87 | 1.2 | 0.52 | 0.88 |
| LMLN | 1 | -1.06 | -1.22 | -1.07 | -0.9 |
| RAD54B | 1 | 0.03 | 0.11 | -0.03 | 0 |
| RAD54B | 2 | 0.05 | 0.1 | -0.15 | 0.19 |
| NKX6-1 | 1 | 0.91 | 0.88 | 0.9 | 0.95 |
| MBD1 | 1 | -0.51 | -0.28 | -0.41 | -0.83 |
| ASIC3 | 1 | -0.67 | -0.81 | -0.59 | -0.61 |
| CNOT2 | 1 | 1.7 | 1.78 | 1.53 | 1.79 |
| CCP110 | 1 | -1.26 | -1.33 | -1.42 | -1.04 |
| GTF2I | 1 | -2.25 | -1.96 | -2.49 | -2.31 |
| NPFF | 1 | -0.45 | -0.66 | -0.4 | -0.3 |
| TCP1 | 1 | 1.23 | 1.54 | 1.14 | 1.02 |
| LOC401056 (retired record) | 1 | 0.61 | 0.4 | 0.57 | 0.87 |
| CRIPT | 1 | -0.29 | -0.34 | -0.23 | -0.31 |

11 entries already listed, ordered by “z-score, replicate B”, ascending:
| target | reagent | mean z-score | z-score, replicate A | z-score, replicate B | z-score, replicate C |
| --- | --- | --- | --- | --- | --- |
| CPQ | 1 | -1.6 | -1.41 | -1.78 | -1.6 |
| B3GALT5-AS1 | 1 | -0.81 | -0.63 | -0.86 | -0.93 |
| SCYL1 | 1 | -0.24 | 0 | -0.42 | -0.3 |
| LOC389117 (retired record) | 1 | -0.45 | -0.6 | -0.33 | -0.44 |
| CALCRL | 1 | -0.22 | -0.39 | -0.1 | -0.19 |
| OR2G2 | 1 | 0.12 | 0.57 | 0.06 | -0.29 |
| ANKRD27 | 1 | 0.03 | -0.01 | 0.17 | -0.06 |
| SETD6 | 1 | -0.04 | -0.03 | 0.44 | -0.52 |
| ZMIZ1-AS1 | 1 | 0.62 | – | 0.5 | 0.73 |
| LINC00479 | 1 | 1.07 | 1.49 | 0.65 | 1.06 |
| EVC2 | 1 | 2.45 (active) | 1.95 | 2.6 | 2.8 |
